PSTVd stem 15 mutant pool in Nicotiana benthamiana

From the data files of Wu et al. 2024, doi:10.1371/journal.ppat.1012142.

Region: stem 15 of PSTVd (intermediate strain), upper and lower strand joined, each 5' to 3', the first 9 letters being the upper strand. Wild type: CUGGAGCGAUCGCUUCGG. Varied positions (N): CUGGAGCGAUNGNNUNNG.

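Three N. benthamiana plants were inoculated with the whole mutant pool. Progeny were sequenced from the inoculated region (day 5), the margin of the inoculated leaf (day 10) and systemic leaves (day 12).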

Values are reads per thousand in the sample; higher means more abundant, 0 means not found. Each site shows the three plants. "Pool" is the share in the plasmid pool used as inoculum, on the same scale. The inoculated region was read from the minus strand, the other sites from the plus strand. For reference, wild type rose from 10.2 per thousand in the pool to 285, 367, 312 (inoculated region), 785, 865, 782 (leaf margin) and 854, 898, 915 (systemic leaves). With 36,693-63,082 reads a sample, very low values are single reads. The authors trace changes outside the varied positions to PCR and sequencing errors or to mutation in the plant; presence does not show that a variant is infectious alone.

| # | sequence | pool | inoculated region | leaf margin | systemic leaves |
|---|---|---|---|---|---|
| 1 | AUGGAGCGAUGGUAUCGG | 0.0162 | 0 0 0 | 0 0 0 | 0 0 0 |
| 2 | AUGGAGCGAUUGCUUCCG | 0.0162 | 0 0 0 | 0 0 0 | 0 0 0 |
| 3 | CAGGAGCGAUCGCCUCCG | 0.0162 | 0 0 0 | 0 0 0 | 0 0 0 |
| 4 | CAGGAGCGAUGGGUUCGG | 0.0162 | 0 0 0 | 0 0 0 | 0 0 0 |
| 5 | CAGGAGCGAUUGUGUGCG | 0.0162 | 0 0 0 | 0 0 0 | 0 0 0 |
| 6 | CAGGAGCGAUUGUUUAUG | 0.0162 | 0 0 0 | 0 0 0 | 0 0 0 |
| 7 | CUAGAGCGAUAGCAUAGG | 0.0162 | 0 0 0 | 0 0 0 | 0 0 0 |
| 8 | CUGGAGAGAUUGACUUAG | 0.0162 | 0 0 0 | 0 0 0 | 0 0 0 |
| 9 | CUGGAGCGAUAGAAUCGG | 1.02 | 0.313 0.209 0.298 | 0.0414 0 0.0159 | 0 0 0 |
| 10 | CUGGAGCGAUAGACUGAG | 1.07 | 2.09 1.78 0.242 | 0.103 0 0.0159 | 0 0 0 |
| 11 | CUGGAGCGAUAGAUUCAG | 1.07 | 0.352 0.293 0.391 | 0.103 0 0.0317 | 0 0 0 |
| 12 | CUGGAGCGAUAGCCUGCG | 0.905 | 0.215 0.398 0.316 | 0.0414 0 0.0159 | 0 0 0 |
| 13 | CUGGAGCGAUAGGCUCGG | 0.614 | 0.254 0.251 0.149 | 0.0207 0.0273 0.634 | 0 0 0 |
| 14 | CUGGAGCGAUAGGGUGGG | 0.954 | 0.352 0.272 0.279 | 0.0827 0 0.0317 | 0 0 0 |
| 15 | CUGGAGCGAUAGGUUUGG | 0.857 | 0.274 0.126 0.484 | 0.0207 0 0 | 0 0 0 |
| 16 | CUGGAGCGAUAGUAUAGG | 0.889 | 0.235 0.209 0.261 | 0.0414 0.0273 0.0159 | 0 0 0 |
| 17 | CUGGAGCGAUAGUAUGUG | 0.986 | 0.372 0.398 0.298 | 0.165 0 0.0159 | 0 0 0 |
| 18 | CUGGAGCGAUAGUCUGCG | 0.986 | 0.274 0.272 0.372 | 0.0207 0.0273 0.0317 | 0 0 0 |
| 19 | CUGGAGCGAUAGUCUUAG | 1.03 | 1.98 0.984 1.95 | 0.620 0.491 0.856 | 0.891 0.798 0.458 |
| 20 | CUGGAGCGAUAGUCUUGG | 0.905 | 2.05 0.817 1.27 | 0.600 0 0.840 | 0.950 0 0 |
| 21 | CUGGAGCGAUAGUUUAGG | 0.824 | 0.411 0.251 0.391 | 0.103 0.0545 0.0317 | 0 0 0 |
| 22 | CUGGAGCGAUCGAUUCAG | 0.727 | 0.352 0.293 0.335 | 0.0827 0.0273 0.0317 | 0 0 0 |
| 23 | CUGGAGCGAUCGCAUACG | 0.727 | 0.333 0.209 0.279 | 0 0.0273 0 | 0 0 0 |
| 24 | CUGGAGCGAUCGCAUAGG | 0.937 | 0.352 0.293 0.465 | 0.0620 0.0273 0.0159 | 0 0 0 |
| 25 | CUGGAGCGAUCGCCUAAG | 0.970 | 0.333 0.209 0.372 | 0.0620 0 0.0159 | 0 0 0 |
| 26 | CUGGAGCGAUCGGAUGCG | 0.840 | 0.235 0.377 0.391 | 0.103 0 0 | 0 0 0 |
| 27 | CUGGAGCGAUCGUAUCAG | 0.921 | 0.176 0.272 0.316 | 0.0414 0.0818 0.0317 | 0 0 0 |
| 28 | CUGGAGCGAUCGUCUACG | 0.937 | 0.333 0.209 0.279 | 0 0 0.0159 | 0 0 0 |
| 29 | CUGGAGCGAUGGAAUGCG | 0.873 | 0.235 0.251 0.298 | 0.0207 0 0.0317 | 0 0 0 |
| 30 | CUGGAGCGAUGGAGUUAG | 1.07 | 0.430 0.984 0.298 | 0.124 0.0273 0.0317 | 0 0 0 |
| 31 | CUGGAGCGAUGGAUUUCG | 0.792 | 0.274 0.230 0.335 | 0.0827 0.0818 0 | 0 0 0 |
| 32 | CUGGAGCGAUGGCAUAUG | 1.41 | 0.646 0.859 0.614 | 0.0414 0.245 0.0159 | 0 0 0 |
| 33 | CUGGAGCGAUGGCAUUAG | 0.937 | 0.215 0.230 0.335 | 0 0.109 0.0476 | 0 0 0 |
| 34 | CUGGAGCGAUGGCAUUGG | 1.02 | 0.509 0.335 0.465 | 0 0 0.0317 | 0 0 0 |
| 35 | CUGGAGCGAUGGGAUAAG | 0.857 | 0.215 0.209 0.261 | 0 0 0.0317 | 0 0 0 |
| 36 | CUGGAGCGAUGGGCUUGG | 0.792 | 0.294 0.168 0.242 | 0 0 0 | 0 0 0 |
| 37 | CUGGAGCGAUGGGGUAGG | 0.873 | 0.176 0.147 0.335 | 0.103 0.109 0.0317 | 0 0 0 |
| 38 | CUGGAGCGAUGGGUUAAG | 0.824 | 0.294 0.314 0.242 | 0.0207 0.0273 0.0634 | 0 0 0 |
| 39 | CUGGAGCGAUGGGUUUCG | 0.873 | 0.254 0.188 0.205 | 0.0414 0.0545 0.0317 | 0 0 0 |
| 40 | CUGGAGCGAUGGUAUACG | 0.970 | 0.137 0.209 0.503 | 0.0414 0.0273 0.0317 | 0 0 0 |
| 41 | CUGGAGCGAUGGUAUCAG | 0.840 | 0.254 0.272 0.354 | 0.0620 0 0.0476 | 0 0 0 |
| 42 | CUGGAGCGAUGGUAUCGG | 2.02 | 0.920 1.17 0.838 | 0.0827 0.0545 0.0317 | 0 0.0222 0 |
| 43 | CUGGAGCGAUGGUAUCUG | 0.873 | 0.313 0.398 0.205 | 0.103 0.109 0.0476 | 0 0 0 |
| 44 | CUGGAGCGAUGGUCUCAG | 1.37 | 2.37 1.28 1.95 | 0.476 0.436 0.919 | 0.713 0.798 0.379 |
| 45 | CUGGAGCGAUGGUGUAGG | 0.954 | 0.215 0.398 0.242 | 0.124 0 0.0476 | 0 0 0 |
| 46 | CUGGAGCGAUGGUGUCGG | 2.36 | 1.45 1.76 1.99 | 0.103 0 0.0476 | 0 0 0.0199 |
| 47 | CUGGAGCGAUGGUUUAAG | 0.840 | 0.352 0.188 0.261 | 0.124 0 0.0159 | 0 0 0 |
| 48 | CUGGAGCGAUUGAAUACG | 0.808 | 0.352 0.335 0.298 | 0 0.0545 0.0159 | 0 0 0 |
| 49 | CUGGAGCGAUUGAAUGCG | 0.986 | 0.372 0.168 0.298 | 0.0620 0.0545 0.0317 | 0 0 0 |
| 50 | CUGGAGCGAUUGAGUGUG | 0.776 | 0.215 0.314 0.409 | 0.0620 0 0.0159 | 0 0 0 |
| 51 | CUGGAGCGAUUGCCUAGG | 1.08 | 0.352 1.24 0.354 | 0.103 0.0545 0.0159 | 0 0 0 |
| 52 | CUGGAGCGAUUGCUUAUG | 0.824 | 0.411 0.314 0.391 | 0.0414 0.0273 0.0317 | 0 0 0 |
| 53 | CUGGAGCGAUUGCUUCUG | 0.873 | 0.235 0.293 0.261 | 0.0827 0.0273 0 | 0 0 0 |
| 54 | CUGGAGCGAUUGGAUGGG | 0.792 | 0.313 0.147 0.391 | 0.103 0 0.0317 | 0 0 0 |
| 55 | CUGGAGCGAUUGUGUAUG | 0.970 | 0.235 0.209 0.335 | 0.0620 0 0.0317 | 0 0 0 |
| 56 | CUGGAGCGAUUGUGUUAG | 1.08 | 1.72 1.15 1.25 | 0.517 0.518 0.872 | 0.871 0.643 0.498 |
| 57 | CUGGAGCGAUUGUGUUUG | 0.808 | 2.02 0.984 1.27 | 0.0620 1.69 1.01 | 0 0 0 |
| 58 | CUGGCGCGAUCGUAUGCG | 0.0162 | 0 0 0 | 0 0 0 | 0 0 0 |
| 59 | CUGUAGCGAUAGUGUAUG | 0.0162 | 0 0 0 | 0 0 0 | 0 0 0 |
| 60 | CUUGAGCGAUAGACUGAG | 0.0162 | 0 0 0 | 0 0 0 | 0 0 0 |

Excerpt, the final 5 entries:

| sequence | pool | inoculated region | leaf margin | systemic leaves |
|---|---|---|---|---|
| CUGGAGCGAUUGUGUUAG | 1.08 | 1.72 1.15 1.25 | 0.517 0.518 0.872 | 0.871 0.643 0.498 |
| CUGGAGCGAUUGUGUUUG | 0.808 | 2.02 0.984 1.27 | 0.0620 1.69 1.01 | 0 0 0 |
| CUGGCGCGAUCGUAUGCG | 0.0162 | 0 0 0 | 0 0 0 | 0 0 0 |
| CUGUAGCGAUAGUGUAUG | 0.0162 | 0 0 0 | 0 0 0 | 0 0 0 |
| CUUGAGCGAUAGACUGAG | 0.0162 | 0 0 0 | 0 0 0 | 0 0 0 |